PSTVd loop 6 mutant pool in Nicotiana benthamiana

Data from the supplement of Wu et al. 2024, doi:10.1371/journal.ppat.1012142.

Region: loop 6 of PSTVd (intermediate strain), upper and lower strand joined, each 5' to 3', the first 5 letters being the upper strand, closing pairs included. Wild type: UGACCGCGAG. Varied positions (N): UNNNCGNNNG.

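A pool of all variants was put on leaves of three Nicotiana benthamiana plants. Progeny were sequenced from the inoculated region (day 5), the margin of the inoculated leaf (day 10) and systemic leaves (day 12).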

Values are reads per thousand in the sample; higher means more abundant, 0 means not found. Each value is the mean of three plants. "Pool" is the share in the plasmid pool used as inoculum, on the same scale. The inoculated region was read from the minus strand, the other sites from the plus strand.

sequence,pool,inoculated region,leaf margin,systemic leaves
GGACCGGCCG,0.0261,0.0236,0,0
UAACCGAAUG,0.275,0.132,0.00920,0
UAACCGCAUG,0.0784,0.566,0.102,0.0270
UAAGCGACCG,0.170,0.0598,0,0
UAAUCGGGCG,0.196,0.678,0.121,0.0270
UACACGAGAG,0.131,0.0587,0,0
UACGCGUGAG,0.288,0.0476,0,0
UAGACGCUCG,0.235,0.0952,0,0
UAGGCGCGGG,0.209,0.148,0.00920,0
UAGUCGCAUG,0.144,0.0833,0.00773,0
UCAGCGAAUG,0.340,0.108,0.00773,0
UCAUCGUUCG,0.196,0.0893,0.00920,0
UCCCCUGGCC,0.0131,0,0,0
UCCGCGAAGG,0.105,0.0961,0,0
UCCGCGAUAG,0.275,0.0657,0.108,0.00684
UCCGCGUAAG,0.157,0.0898,0,0
UCCGCGUGGG,0.209,0.119,0,0
UCGACGGAUG,0.170,0.0940,0,0
UCGCCGAGCG,0.222,0.0827,0.00773,0
UCGCCGGCCG,0.196,0.106,0,0
UCUACGUUCG,0.261,0.0775,0.120,0
UGAACGUGCG,0.0915,0.180,0.0169,0
UGAACUCUAG,0.0131,0,0,0
UGACAGCCGG,0.0131,0,0.00920,0
UGAGCGGCUG,0.131,0.0780,0,0.0331
UGAUCGCACG,0.366,0.136,0,0
UGCACGAUGG,0.314,0.0949,0,0
UGCGCGAUAG,0.301,0.0832,0.0928,0
UGCGCGCUGG,0.131,0.0768,0.00841,0
UGGACGAUUG,0.405,0.0543,0,0
UGGCCGCCGG,0.248,0.121,0.0431,0
UGGGCGCUUG,0.366,0.125,0.00920,0
UGGUCGGUUG,0.301,0.0657,0.0155,0
UGUCCGUUGG,0.209,0.107,0.0155,0
UGUGCGAGCG,0.261,0.126,0,0
UGUGCGGAUG,0.314,0.0411,0.0247,0
UUAGCUCGAG,0.0131,0.00615,0,0
UUCCCGCCUG,0.275,0.106,0.119,0.0136
UUCUCGGAAG,0.131,0.113,0,0
UUCUCGUGUG,0.418,0.101,0,0
UUGCCGAUAG,0.209,0.107,0.0232,0
UUGGCGGCCG,0.523,0.0596,0,0.00684
UUGUAGAUCG,0.0131,0,0,0
UUGUCGUAUG,0.601,0.137,0.147,0
UUUACGAUCG,0.275,0.0889,0,0
UUUCCGUGGG,0.209,0.113,0.0479,0

The first 5 entries again:

| sequence | pool | inoculated region | leaf margin | systemic leaves |
|---|---|---|---|---|
| GGACCGGCCG | 0.0261 | 0.0236 | 0 | 0 |
| UAACCGAAUG | 0.275 | 0.132 | 0.00920 | 0 |
| UAACCGCAUG | 0.0784 | 0.566 | 0.102 | 0.0270 |
| UAAGCGACCG | 0.170 | 0.0598 | 0 | 0 |
| UAAUCGGGCG | 0.196 | 0.678 | 0.121 | 0.0270 |

Samples held 36,220 to 57,551 reads, so the smallest values rest on one or two reads. Sequences that differ at fixed positions probably stem from PCR or sequencing errors, and defective variants can be carried along by functional ones. For reference, wild type rose from 20.7 per thousand in the pool to 195, 198, 203 (inoculated region), 629, 591, 734 (leaf margin) and 942, 870, 868 (systemic leaves).